Data as given in PubChem BioAssay AID504761 (Drosophila RNAi Screening Center, 2011).
Assay: 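Fly genes whose silencing reduces dengue virus type 2 infection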 (primary screen). Cell system: D.Mel-2 cells from Drosophila. Reagents: long dsRNA against Drosophila genes. Conditions: infection with dengue virus type 2; dose and infection time not stated. Measurement: 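Per well on two replicate plates, imaging gave the percent of cells positive for viral envelope protein, ranked by infection, and a nuclear count of cells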. Reading the numbers: infection score: higher = more virus-infected cells; cell count: higher = more cells in the well. Rule for the call: 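Low infection ranks in the two replicates (chance level up to 0.065) followed by a retest with a 1.5-fold or larger significant decrease, p below 0.05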. Meaning of the calls: active = confirmed: knock-down lowers infection; inactive = not picked or not confirmed.
In all, the deposit lists about 22,000 reagents; below is an unselected part of those with a known target gene and a result. Over the whole deposit, 116 (0.52%) were called active. 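Calls depend on retest data that are not deposited; infection was ranked per plate without normalising between plates; the unit of the infection score is not given.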 Raw values vary from plate to plate and are shown uncorrected. The record does not give: the amount of reagent, the time to read-out.

What is on record for Usp10 [DRSC08282]?
infection score, replicate 1: 4.81; infection score, replicate 2: 3.11; cell count, replicate 1: 6383; cell count, replicate 2: 7032; activity call: inactive

How did the screen score Usp10 [DRSC08373]?
infection score, replicate 1: 3.18; infection score, replicate 2: 2.26; cell count, replicate 1: 6508; cell count, replicate 2: 6551; activity call: inactive

For Ltn1 [DRSC11056], how do the results read?
infection score, replicate 1: 8.22; infection score, replicate 2: 11.9; cell count, replicate 1: 6438; cell count, replicate 2: 6582; activity call: inactive

What did the screen give for Ltn1 [DRSC11058]?
infection score, replicate 1: 1.34; infection score, replicate 2: 3.65; cell count, replicate 1: 6561; cell count, replicate 2: 6321; activity call: inactive

For Prp18 [DRSC16802], how do the results read?
infection score, replicate 1: 3.6; infection score, replicate 2: 2.97; cell count, replicate 1: 5310; cell count, replicate 2: 5217; activity call: inactive

With hale [DRSC10882], how do the results read?
infection score, replicate 1: 2.43; infection score, replicate 2: 3.98; cell count, replicate 1: 6639; cell count, replicate 2: 6584; activity call: inactive

For hale [DRSC28772], what does the deposit list?
infection score, replicate 1: 12.7; infection score, replicate 2: 7.09; cell count, replicate 1: 3012; cell count, replicate 2: 1510; activity call: inactive

With CG12316 [DRSC09879], what does the deposit list?
infection score, replicate 1: 18.5; infection score, replicate 2: 13.4; cell count, replicate 1: 4948; cell count, replicate 2: 2611; activity call: inactive

What is on record for CG12316 [DRSC27599]?
infection score, replicate 1: 13.3; infection score, replicate 2: 5.75; cell count, replicate 1: 6153; cell count, replicate 2: 6884; activity call: inactive

What did the screen give for gsb-n [DRSC04021]?
infection score, replicate 1: 1.41; infection score, replicate 2: 0.3; cell count, replicate 1: 6099; cell count, replicate 2: 5601; activity call: inactive

What did the screen give for gsb-n [DRSC04693]?
infection score, replicate 1: 36; infection score, replicate 2: 12.4; cell count, replicate 1: 5223; cell count, replicate 2: 4913; activity call: inactive

With Csl4 [DRSC02944], what was measured?
infection score, replicate 1: 25.7; infection score, replicate 2: 3.28; cell count, replicate 1: 5918; cell count, replicate 2: 1708; activity call: inactive

Which result is listed for Csl4 [DRSC22664]?
infection score, replicate 1: 4.53; infection score, replicate 2: 2.87; cell count, replicate 1: 6403; cell count, replicate 2: 6444; activity call: inactive

For TORIP [DRSC10104], what does the deposit list?
infection score, replicate 1: 8.26; infection score, replicate 2: 16.3; cell count, replicate 1: 6329; cell count, replicate 2: 6512; activity call: inactive

What is on record for CG31019 [DRSC13994]?
infection score, replicate 1: 4.4; infection score, replicate 2: 2.04; cell count, replicate 1: 5824; cell count, replicate 2: 6533; activity call: inactive

What did the screen give for CG31019 [DRSC26555]?
infection score, replicate 1: 11.2; infection score, replicate 2: 8.73; cell count, replicate 1: 4576; cell count, replicate 2: 5693; activity call: inactive

For Uros1 [DRSC18191], how do the results read?
infection score, replicate 1: 4.55; infection score, replicate 2: 1.43; cell count, replicate 1: 6461; cell count, replicate 2: 6424; activity call: inactive

With Uros1 [DRSC29316], how do the results read?
cell count, replicate 1: 370; cell count, replicate 2: 359; activity call: inactive

How did the screen score CG10750 [DRSC02105]?
infection score, replicate 1: 9.42; infection score, replicate 2: 7.95; cell count, replicate 1: 6455; cell count, replicate 2: 6327; activity call: inactive

For CG10750 [DRSC29624], what was measured?
infection score, replicate 1: 15.1; infection score, replicate 2: 9.69; cell count, replicate 1: 5976; cell count, replicate 2: 2187; activity call: inactive

What did the screen give for fog [DRSC20646]?
infection score, replicate 1: 5.92; infection score, replicate 2: 1.06; cell count, replicate 1: 6521; cell count, replicate 2: 6668; activity call: inactive

Reprinted from the entries so far for reference:
CG31019 [DRSC13994]: infection score, replicate 1 = 4.4; infection score, replicate 2 = 2.04; cell count, replicate 1 = 5824; cell count, replicate 2 = 6533; activity call = inactive
CG31019 [DRSC26555]: infection score, replicate 1 = 11.2; infection score, replicate 2 = 8.73; cell count, replicate 1 = 4576; cell count, replicate 2 = 5693; activity call = inactive
